HIV-1 5' UTR: effect of mutations on RNA dimer formation

Source: Ye et al. 2022 (doi:10.1038/s41594-022-00746-2), supplementary data.

Sequence of the HIV-1 NL4-3 5' RNA, positions 1 to 437, as numbered in the source:
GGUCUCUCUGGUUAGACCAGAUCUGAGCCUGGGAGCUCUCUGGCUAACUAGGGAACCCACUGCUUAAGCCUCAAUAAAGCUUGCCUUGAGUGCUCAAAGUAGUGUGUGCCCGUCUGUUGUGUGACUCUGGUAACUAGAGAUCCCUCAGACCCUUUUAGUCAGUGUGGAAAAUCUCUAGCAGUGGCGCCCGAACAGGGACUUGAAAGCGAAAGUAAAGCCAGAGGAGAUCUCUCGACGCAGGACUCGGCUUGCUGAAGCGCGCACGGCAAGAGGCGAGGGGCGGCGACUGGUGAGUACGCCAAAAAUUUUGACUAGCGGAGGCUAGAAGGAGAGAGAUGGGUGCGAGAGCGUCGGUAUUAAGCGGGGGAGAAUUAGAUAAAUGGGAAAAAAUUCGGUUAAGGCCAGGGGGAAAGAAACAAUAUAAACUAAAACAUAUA

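Randomly mutated transcripts starting with one, two or three G (1G, 2G, 3G), capped or uncapped, were folded for 30 min at 37 °C. Monomer and dimer bands were cut from native gels after folding in high salt (300 mM KCl, 5 mM MgCl2) or low salt (40 mM KCl, 0.1 mM MgCl2). Mutation frequencies in the two bands give Kdimer.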

Scale: median log2 Kdimer over the changes at a position; positive = changes inhibit dimerization, negative = changes enhance it.
Sample: 2G capped high-salt.
One numbering serves 1G, 2G and 3G.
A position is written with its base.

A136 (domain PBS) read 0.11. G137 (domain PBS) gave 0.18. With A138 (domain PBS) the assay gave -0.01. G139 (domain PBS) read -0.04. With A140 (domain PBS) the assay gave 0.14.

With U141 (domain PBS) the assay gave -0.07. C142 (domain PBS) read 0.07. C143 (domain PBS) read 0.13. C144 (domain PBS) read 0.02. With U145 (domain PBS) the assay gave 0.06.

C146 (domain PBS) gave -0.02. A147 (domain PBS) read 0.01. G148 (domain PBS) read 0.13. A149 (domain PBS) gave 0.96. With C150 (domain PBS) the assay gave 0.15.

C151 (domain PBS) gave -0.03. With C152 (domain PBS) the assay gave 0.04. With U153 (domain PBS) the assay gave 0.10. U154 (domain PBS) gave 0.06. U155 (domain PBS) gave -0.03.

U156 (domain PBS) gave 0.02. With A157 (domain PBS) the assay gave 0.04. G158 (domain PBS) gave -0.39. For U159 (domain PBS) the result was -0.38. With C160 (domain PBS) the assay gave -0.14.

A161 (domain PBS) read 0.10. For G162 (domain PBS) the result was 0.01. For U163 (domain PBS) the result was 0.15. For G164 (domain PBS) the result was 0.00. U165 (domain PBS) read -0.01.

For G166 (domain PBS) the result was -0.10. For G167 (domain PBS) the result was 0.08. With A168 (domain PBS) the assay gave 0.06. A169 (domain PBS) read 0.12. With A170 (domain PBS) the assay gave 0.05.

A171 (domain PBS) gave 0.04. U172 (domain PBS) gave 0.05. C173 (domain PBS) read -0.14. U174 (domain PBS) gave -0.41. C175 (domain PBS) gave -0.26.

For U176 (domain PBS) the result was 0.10. With A177 (domain PBS) the assay gave -0.11. With G178 (domain PBS) the assay gave 0.23. With C179 (domain PBS) the assay gave -0.22. A180 (domain PBS) gave 0.07.

G181 (domain PBS) gave -0.17. For U182 (domain PBS) the result was 0.04. For G183 (domain PBS) the result was 0.07. G184 (domain PBS) gave 0.17. C185 (domain PBS) read 0.04.

For G186 (domain PBS) the result was -0.17. C187 (domain PBS) read -0.02. C188 (domain PBS) read 0.13. C189 (domain PBS) gave 0.10. G190 (domain PBS) read 0.16.

For A191 (domain PBS) the result was -0.13.

Excerpt, the final 6 entries:

| position | domain | 2G capped high-salt |
|---|---|---|
| G186 | PBS | -0.17 |
| C187 | PBS | -0.02 |
| C188 | PBS | 0.13 |
| C189 | PBS | 0.10 |
| G190 | PBS | 0.16 |
| A191 | PBS | -0.13 |